Experimental data: PubChem BioAssay AID1224833 (University of Georgia, 2016)
This is an unselected part of about 12,000 reagents tested. About 5,600 of them (46%) were called active. 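Active calls cover z-scores past 1 in both directions, so they include lowered as well as raised rotavirus replication.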

- Screen: 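Human genes whose knock-down alters rotavirus replication in monkey cells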 (primary screen)
- Cell system: monkey MA104 kidney cells
- Reagent: siRNA pool against human genes, 50 nM
- Duration: 48 h knock-down before infection; read 24 h after infection
- Conditions: infection with rotavirus strain RV3 two days after transfection; infectious dose for this stage not given
- Measurement: 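Rotavirus antigen per well by fluorescent immunoassay, normalised to non-targeting control wells on each plate and given as a standard z-score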
- Reading the numbers: z-score vs non-targeting control: higher = more rotavirus replication than with non-targeting control
- Hit rule: In these data the active calls have z-score vs non-targeting control at about -1 or lower, or at about 1 or higher
- Meaning of the calls: active = z-score beyond 1 either way; inactive = z-score within 1 of zero

| gene | z-score vs non-targeting control | call |
| --- | --- | --- |
| SYNPR (GeneID 132204) | -0.34 | inactive |
| UTP11 (GeneID 51118) | 0.322 | inactive |
| SSX2IP (GeneID 117178) | -0.0822 | inactive |
| AP2S1 (GeneID 1175) | -1.97 | active |
| VSTM2L (GeneID 128434) | -0.65 | inactive |
| THOC1 (GeneID 9984) | 0.449 | inactive |
| NUP210 (GeneID 23225) | 1.19 | active |
| CTSK (GeneID 1513) | -1.08 | active |
| GPATCH2 (GeneID 55105) | 1.51 | active |
| NLGN4X (GeneID 57502) | 0.724 | inactive |
| TNFRSF4 (GeneID 7293) | 0.582 | inactive |
| ITPRIPL2 (GeneID 162073) | -0.891 | inactive |
| AKR1C3 (GeneID 8644) | 0.283 | inactive |
| ZNF224 (GeneID 7767) | -0.713 | inactive |
| SEPTIN14 (GeneID 346288) | 1.7 | active |
| EIF5 (GeneID 1983) | -0.608 | inactive |
| PGBD3 (GeneID 267004) | -0.807 | inactive |
| SQSTM1 (GeneID 8878) | -0.625 | inactive |
| PLEKHS1 (GeneID 79949) | -0.0768 | inactive |
| CRCT1 (GeneID 54544) | 0.251 | inactive |
| DPM2 (GeneID 8818) | -1.58 | active |
| CXCL1 (GeneID 2919) | -2.25 | active |
| RBM6 (GeneID 10180) | -0.265 | inactive |
| SDC3 (GeneID 9672) | -0.262 | inactive |
| ZNF608 (GeneID 57507) | -1.48 | active |
| THY1 (GeneID 7070) | 1.35 | active |
| OSR2 (GeneID 116039) | -0.684 | inactive |
| NDUFA5 (GeneID 4698) | 1.05 | active |
| RPF2 (GeneID 84154) | 1.54 | active |
| CIMAP1C (GeneID 161753) | -1.22 | active |
| ITGA10 (GeneID 8515) | -0.0017 | inactive |
| CPA1 (GeneID 1357) | 0.575 | inactive |
| CYB561 (GeneID 1534) | -0.0986 | inactive |
| LRRC24 (GeneID 441381) | 0.0634 | inactive |
| PRMT2IP (GeneID 56905) | -2.38 | active |
| SPOCK1 (GeneID 6695) | -1.89 | active |
| RGMB (GeneID 285704) | 0.0488 | inactive |
| CCDC3 (GeneID 83643) | -1.08 | active |
| ZMAT4 (GeneID 79698) | -0.193 | inactive |
| COL11A2 (GeneID 1302) | -0.392 | inactive |
| ZNF470 (GeneID 388566) | 0.977 | inactive |
| SCRT1 (GeneID 83482) | -2.48 | active |
| STAM2 (GeneID 10254) | -0.79 | inactive |

Next part; the last 4 above are carried over.
| gene | z-score vs non-targeting control | call |
| --- | --- | --- |
| COL11A2 (GeneID 1302) | -0.392 | inactive |
| ZNF470 (GeneID 388566) | 0.977 | inactive |
| SCRT1 (GeneID 83482) | -2.48 | active |
| STAM2 (GeneID 10254) | -0.79 | inactive |
| TMEM145 (GeneID 284339) | 0.615 | inactive |
| RHOBTB1 (GeneID 9886) | -2.77 | active |
| ANKRD24 (GeneID 170961) | -1.11 | active |
| VHLL (GeneID 391104) | 0.0949 | inactive |
| THAP10 (GeneID 56906) | -1.3 | active |
| GRM4 (GeneID 2914) | -0.684 | inactive |
| PLCB2 (GeneID 5330) | 0.842 | inactive |
| WRAP73 (GeneID 49856) | 1.95 | active |
| QRFP (GeneID 347148) | 0.19 | inactive |
| PPIB (GeneID 5479) | -1.77 | active |
| SGTB (GeneID 54557) | -0.442 | inactive |
| CALML6 (GeneID 163688) | 0.839 | inactive |
| RPL38 (GeneID 6169) | 2.54 | active |
| SERPINH1 (GeneID 871) | -2.18 | active |
| IRF2BPL (GeneID 64207) | -0.0891 | inactive |
| CEP170B (GeneID 283638) | 2.37 | active |
| NRIP1 (GeneID 8204) | -0.282 | inactive |
| GJA5 (GeneID 2702) | -1.46 | active |
| FDCSP (GeneID 260436) | -1.29 | active |
| NLRP2 (GeneID 55655) | -1.1 | active |
| AKAP14 (GeneID 158798) | 0.528 | inactive |
| RCN2 (GeneID 5955) | -1.36 | active |
| EZH1 (GeneID 2145) | -2.9 | active |
| CYP24A1 (GeneID 1591) | -1.57 | active |
| NRSN2 (GeneID 80023) | 1.12 | active |
| C19orf47 (GeneID 126526) | 3.44 | active |
| PEX5L (GeneID 51555) | -0.907 | inactive |
| AGPAT5 (GeneID 55326) | 0.0183 | inactive |
| CSF3 (GeneID 1440) | 0.72 | inactive |
| PARP8 (GeneID 79668) | 1.21 | active |
| TMEFF2 (GeneID 23671) | -2.02 | active |
| RABGGTA (GeneID 5875) | -1.08 | active |
| DHX58 (GeneID 79132) | 1.2 | active |
| EPN3 (GeneID 55040) | 0.157 | inactive |
| GPC4 (GeneID 2239) | -0.676 | inactive |
| ARHGEF11 (GeneID 9826) | 0.038 | inactive |
| MPHOSPH10 (GeneID 10199) | -1.05 | active |
| TTC23L (GeneID 153657) | -2.03 | active |
| CNNM1 (GeneID 26507) | 0.778 | inactive |
| EPC1 (GeneID 80314) | -0.88 | inactive |
| SRP19 (GeneID 6728) | -0.522 | inactive |
| CD83 (GeneID 9308) | 0.838 | inactive |
| FABP7 (GeneID 2173) | -1.04 | active |
| TM4SF18 (GeneID 116441) | -0.932 | inactive |
| TRMT13 (GeneID 54482) | -1.23 | active |
| ECH1 (GeneID 1891) | 0.879 | inactive |
| ARL14 (GeneID 80117) | -1.43 | active |
| SCAP (GeneID 22937) | -1.48 | active |
| HLA-DQA2 (GeneID 3118) | 0.185 | inactive |
| ZNF221 (GeneID 7638) | -2.38 | active |
| DAP3 (GeneID 7818) | -1.8 | active |
| IQGAP3 (GeneID 128239) | -0.329 | inactive |
| SNAI1 (GeneID 6615) | 0.104 | inactive |
| TFR2 (GeneID 7036) | 0.911 | inactive |
| MAB21L2 (GeneID 10586) | 2.31 | active |
| RGPD2 (GeneID 729857) | -1.64 | active |
| IFNA17 (GeneID 3451) | 1.87 | active |
| DNAH1 (GeneID 25981) | -0.918 | inactive |
| PLA2G1B (GeneID 5319) | -2.54 | active |
| DGKE (GeneID 8526) | -1.79 | active |
| ZBTB38 (GeneID 253461) | -0.324 | inactive |
| INCA1 (GeneID 388324) | 0.623 | inactive |
| SPCS3 (GeneID 60559) | 1.37 | active |
| TIPE3 (GeneID 388121) | -1.02 | active |
| RTCB (GeneID 51493) | -1.81 | active |
| H1-3 (GeneID 3007) | -0.54 | inactive |
| ARL6IP5 (GeneID 10550) | 0.0229 | inactive |
